No end group written: not given here.

This assay concerns the target human voltage-gated sodium channel Nav1.7 (human), Q15858. Kind of assay: cell-based or functional assay.
With DCLGAFRKCIPDLDKCCRPNLVCSRTHRWCKYVF-OH (ends and bridges not checked) [[Ala5;Phe6;Leu13;Arg28]GpTx-1(1-34)-FreeAcid], the Nav1.7/Nav1.3 (ratio of IWQ IC50 on Nav1.7 to that on Nav1.3) is 1 fold. Take DCLGAFRKCIPDPDKCCRPNLVCSRTHRWCKYVF-OH (ends and bridges not checked) [[Ala5;Phe6;Pro13;Arg28]GpTx-1(1-34)-FreeAcid]: the Nav1.7/Nav1.3 (ratio of IWQ IC50 on Nav1.7 to that on Nav1.3) stood at 1 fold.

Consider DCLGAFRKCIPDMDKCCRPNLVCSRTHRWCKYVF-OH (ends and bridges not checked) [[Ala5;Phe6;Met13;Arg28]GpTx-1(1-34)-FreeAcid], for which the Nav1.7/Nav1.3 (ratio of IWQ IC50 on Nav1.7 to that on Nav1.3) was 5.8 fold. The result for DCLGAFRKCIPDKDKCCRPNLVCSRTHRWCKYVF-OH (ends and bridges not checked) [[Ala5;Phe6;Lys13;Arg28]GpTx-1(1-34)-FreeAcid] reads 11.8 fold; that for DCLGAFRKCIPDRDKCCRPNLVCSRTHRWCKYVF-OH (ends and bridges not checked) [[Ala5;Phe6;Arg13,28]GpTx-1(1-34)-FreeAcid], 7.1 fold.

The values above are taken from patent US20160304570A1, “Potent and selective inhibitors of nav1.3 and nav1.7” (published 2016).
